# Experimental data: PubChem BioAssay AID624099 (ICCB-Longwood, 2012)
# Test: 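Human genes that papillomavirus E2 requires to repress the HPV18 LCR promoter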 (primary screen)
# Cell system: human C33A cervical carcinoma cells (HPV-negative) stably expressing BPV1 E2 and an HPV18 LCR luciferase reporter
# Reagent: siRNA pool against human genes, 40 nM
# Duration: 72 h
# Measurement: 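Per-well luciferase luminescence, z-scored on each plate against the plate mean and SD with control wells left out, then averaged across three replicate plates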
# Reading the numbers: mean z-score and z-score: higher = stronger reporter signal, weaker E2 silencing
# Rule for the call: 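Mean z ≥ 2 together with z ≥ 2 in two or more of the three replicates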
# The deposit covers about 21,000 reagents; shown is a part drawn at random. In the full data, 497 (2.4%) were called active. 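Higher z means weaker E2 silencing; only reporter increases were scored, and knock-downs that hurt cell survival may mask genuine repressor factors.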
target gene,PubChem SID,mean z-score,"z-score, replicate A","z-score, replicate B","z-score, replicate C",Call
FOXA2 (GeneID 3170),SID134314731,2.97,3.22,2.83,2.87,active
APOA4 (GeneID 337),SID134315360,1.16,1.04,1.23,1.2,inactive
COPA (GeneID 1314),SID134316152,-4.61,-4.93,-4.48,-4.41,inactive
PLXDC2 (GeneID 84898),SID134319253,-0.24,-0.39,-0.25,-0.08,inactive
SIRAL1 (GeneID 79607),SID134318524,0.07,0.11,-0.22,0.32,inactive
NENF (GeneID 29937),SID134320090,3.39,3.56,3.72,2.9,active
VWC2 (GeneID 375567),SID134326859,-0.1,0.06,0.03,-0.39,inactive
ZNF235 (GeneID 9310),SID134316242,-0.29,-0.33,-0.34,-0.2,inactive
GALC (GeneID 2581),SID134315402,-0.07,-0.18,0.06,-0.08,inactive
ASCC2 (GeneID 84164),SID134320448,1.59,1.62,1.91,1.23,inactive
CCT7 (GeneID 10574),SID134323854,1.4,1.71,1,1.49,inactive
ACVR1 (GeneID 90),SID56478917,-0.31,-0.46,-0.58,0.1,inactive
LOC401456 (retired record) (GeneID 401456),SID134327971,0.26,0.47,-0.09,0.41,inactive
PMS1 (GeneID 5378),SID134314100,0.69,0.68,0.77,0.61,inactive
BDH1 (GeneID 622),SID134313504,0.55,0.77,0.48,0.4,inactive
LOC392473 (retired record) (GeneID 392473),SID134329139,2.05,2.35,1.9,1.92,inactive
FAM91A1 (GeneID 157769),SID134320999,-0.22,-0.18,0.09,-0.57,inactive
LOC202025 (retired record) (GeneID 202025),SID134327471,-1.42,-1.49,-1.6,-1.18,inactive
RELN (GeneID 5649),SID134316310,0.31,0.4,0.36,0.18,inactive
CCDC74A (GeneID 90557),SID134320536,0.58,0.71,0.33,0.7,inactive
LOC400790 (retired record) (GeneID 400790),SID134327113,-0.59,-0.13,-0.88,-0.76,inactive
NEB (GeneID 4703),SID134316197,-0.84,-0.97,-0.69,-0.86,inactive
POTEE (GeneID 445582),SID134329833,-0.85,-0.64,-0.87,-1.06,inactive
C5orf58 (GeneID 133874),SID134326032,-0.34,-0.48,-0.29,-0.26,inactive
CCL22 (GeneID 6367),SID134312773,-0.19,-0.33,-0.27,0.04,inactive
APLNR (GeneID 187),SID134310884,-0.06,0.2,-0.34,-0.05,inactive
NICN1 (GeneID 84276),SID134322460,-1.21,-1.24,-1.23,-1.16,inactive
KCNG4 (GeneID 93107),SID134311649,0.85,0.78,0.52,1.24,inactive
FGD6 (GeneID 55785),SID134326672,1.55,1.64,1.71,1.31,inactive
PPP5C (GeneID 5536),SID134314024,-0.42,-0.35,-0.56,-0.35,inactive
RPS3 (GeneID 6188),SID134317825,-2.72,-2.52,-2.6,-3.04,inactive
TP53TG5 (GeneID 27296),SID134323955,0.74,0.43,0.81,1,inactive
HUS1 (GeneID 3364),SID134309824,1.2,1.13,1.4,1.07,inactive
KLHL1 (GeneID 57626),SID134315297,-1.74,-1.63,-1.45,-2.13,inactive
OR51D1 (GeneID 390038),SID134328326,0.01,0.19,-0.17,0.01,inactive
DANCR (GeneID 57291),SID134325953,1.45,1.66,1.45,1.25,inactive
NUP98 (GeneID 4928),SID134317316,-0.51,-0.74,-0.45,-0.35,inactive
OR5H6 (GeneID 79295),SID134329923,-0.71,-0.75,-0.67,-0.71,inactive
TRAF2 (GeneID 7186),SID134310800,-0.21,-0.24,-0.38,-0.02,inactive
EVA1A (GeneID 84141),SID134318899,-0.69,-0.9,-0.77,-0.41,inactive
ADGB (GeneID 79747),SID134327633,0.64,0.58,0.76,0.59,inactive
POLG (GeneID 5428),SID134316911,0.01,-0.06,0.07,0.02,inactive
FAM131A (GeneID 131408),SID134322580,-0.27,-0.36,-0.4,-0.07,inactive
REXO1L2P (GeneID 100288527),SID134327990,-0.56,-0.75,-0.26,-0.65,inactive
CRELD1 (GeneID 78987),SID134320373,0.41,0.41,0.27,0.54,inactive
ELOVL3 (GeneID 83401),SID134314636,0.29,-0.13,0.53,0.45,inactive
IFNA8 (GeneID 3445),SID134323431,-0.82,-0.83,-0.83,-0.8,inactive
BCCIP (GeneID 56647),SID134317270,1.06,1.29,1.06,0.81,inactive
HOXC12 (GeneID 3228),SID134321596,-0.07,-0.03,0.11,-0.28,inactive
SQOR (GeneID 58472),SID134313154,0.45,0.71,0.57,0.07,inactive
SMARCC1 (GeneID 6599),SID134315259,0.57,0.63,0.61,0.47,inactive
FAM230C (GeneID 26080),SID134328469,1.8,1.81,1.63,1.98,inactive
COL8A1 (GeneID 1295),SID134317248,0.4,0.42,0.44,0.33,inactive
H2AC1 (GeneID 221613),SID134310859,0.39,0.55,0.41,0.2,inactive
SPATA8 (GeneID 145946),SID134322351,0.22,-0.09,0.29,0.45,inactive
PDE10A (GeneID 10846),SID134312701,-1.02,-0.87,-0.99,-1.19,inactive
SLC32A1 (GeneID 140679),SID134312683,0.91,0.78,0.68,1.27,inactive
